Structures are written as SMILES. This is a selection; strong and weak results do not stand in their true shares. Calls of active or inactive are those of the source.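 How the source made its calls: active means mean replicate inhibition at least 50% and at least half of replicates individually reaching 50%; inconclusive means only one of the two criteria met; inactive means neither criterion met.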

This passage reports inhibition results from PubChem BioAssay AID488895 (Broad Institute, 2010).

The assay in a line: E. coli Tat export inhibitors, primary screen, MC4100, TorA-mCherry reporter, fluorescence, single point (AID 488895).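 Further: exported cargo escapes ClpAP degradation while cytoplasmic cargo is degraded and loses fluorescence; 0% = median of neutral control wells and 100% = median of NaSCN control wells.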 The conditions noted are these: at 10 µM, active compounds read high.
Regarding `O=C(NCC1(N2CCCCC2)CCCCC1)c1ccc(OC(F)F)cc1`, the inhibition was inactive: -5.78%.
As to `CCN1CCC(Nc2ccc(Cl)cc2)CC1`, the inhibition is inactive: 0.578%.
The value for `N#CC1(Nc2ccccc2)CCN(CCc2ccccc2)CC1` was inactive: -7.31%; that for `O=C(NCC1(N2CCCCC2)CCCCC1)c1cccc([N+](=O)[O-])c1` was inactive: 5.32%; that for `CSc1ccc(C(=O)NCC2(N3CCOCC3)CCCCC2)cc1` was inactive: -6.04%.
As to `CN1CCC(Nc2cccc(F)c2)CC1`, the inhibition was inactive: -11.3%.
For `O=C(NCC1(N2CCCCC2)CCCCC1)c1cncc(Br)c1`, the inhibition was inactive: -1.73%.
Consider `CCCOc1ccc(C(=O)NCC2(N(C)C)CCCCC2)cc1OC`, for which the inhibition was inactive: -8.26%.
Under `CC(C)c1ccc(NC2CCN(C(=O)OC(C)(C)C)CC2)cc1` stands inactive: 1.62%; under `COc1ccc(CN(CCCl)CCCl)cc1Cl`, inactive: -1.77%; under `CN(C)c1cccc(C(=O)NCC2(N3CCCCC3)CCCCC2)c1`, inactive: -5.28%.
In the case of `COc1cc(OC)c(C(=O)NCC2(N(C)C)CCCCC2)cc1OC`, the inhibition is inactive: -12.1%.
Under `O=C(NCC1(N2CCOCC2)CCCCC1)c1cc(F)c(F)cc1Cl` stands inactive: -7.94%; under `CCOC(=O)N1CCC(Nc2ccc(C)cc2)CC1`, inactive: 18%.
With `N/C(=N\O)c1c(N)no[n+]1[O-]`, the inhibition was inactive: -2.22%.
The value for `O=C(OC1CN2CCC1CC2)C1c2ccccc2C=Cc2ccccc21` (centres undefined) was inactive: -4.6%; that for `COc1cc(C(=O)NCC2(N3CCOCC3)CCCCC2)cc(OC)c1C` was inactive: -2.62%.
As for `O=C(NCC1(N2CCOCC2)CCCCC1)c1cc(Br)ccc1Cl`, the inhibition was inactive: 5.55%.
Take `COc1ccc(C(=O)NCC2(N3CCOCC3)CCCCC2)cc1OC`: the inhibition is inactive: 8.09%.
As to `CN(C)C1(CNC(=O)c2cccc(C#N)c2)CCCCC1`, the inhibition was inactive: 2.1%.
Under `c1ccc(CN2CCC(Nc3ccccc3)CC2)cc1` stands inactive: -0.16%; under `CCCN1CCC(Nc2cc(OC)cc(OC)c2)CC1`, inactive: -0.145%; under `Cc1cc(N(CCCl)CCCl)ccc1C=O`, inactive: 4.19%.
For the compound `N#Cc1ccc(C(=O)NCC2(N3CCCCC3)CCCCC2)cc1`, the inhibition was inactive: 0.803%.
As for `CC(C)(C)OC(=O)N1CCC(N(C(=O)c2ccccc2)c2ccc(Cl)cc2)CC1`, the inhibition was inactive: 21.1%.
Turning to `Cc1ccccc1NC1(C#N)CCN(Cc2ccccc2)CC1`, the inhibition is inactive: -0.047%.
With `CCN1CCC(Nc2cccc(F)c2)CC1`, the inhibition is inactive: -5.57%.
As to `O=C(NCC1(N2CCCCC2)CCCCC1)c1ccco1`, the inhibition is inactive: 4.13%.
Take `CN(C)c1ccc(C(=O)NCC2(N3CCCCC3)CCCCC2)cc1`: the inhibition is inactive: -7.62%.
For `Cn1c(=O)[nH]cc(N(CCCl)CCCl)c1=O`, the inhibition was inactive: -5.33%.
In the case of `CC(=O)N(c1ccccc1)C1CCNCC1`, the inhibition is inactive: -1.53%.
For the compound `COc1cc(OC)cc(C(=O)NCC2(N3CCCCC3)CCCCC2)c1`, the inhibition was inactive: -5.42%.
With `Cc1ccc(C(=O)NCC2(N3CCCCC3)CCCCC2)o1`, the inhibition was inactive: 6.09%.
In the case of `Fc1ccccc1NC1CCN(Cc2ccccc2)CC1`, the inhibition was inactive: -3.1%.
As to `Cc1ccc(NC2(C#N)CCN(Cc3ccccc3)CC2)cc1`, the inhibition is inactive: 0.763%.
Regarding `COc1cc(OC)cc(C(=O)NCC2(N3CCOCC3)CCCCC2)c1`, the inhibition was inactive: -1.14%.
Take `COc1cccc(C(=O)N(c2cc(C)cc(C)c2)C2CCN(C(=O)OC(C)(C)C)CC2)c1`: the inhibition was inactive: -1.17%.
Take `CCC(CO)(C(=O)OC1CN2CCC1CC2)c1ccccc1` (centres undefined): the inhibition was inactive: 4.18%.
As to `CN1CCC(Nc2ccc(Cl)cc2)CC1`, the inhibition was inactive: 1.36%.
As for `CCOc1ncccc1C(=O)NCC1(N2CCOCC2)CCCCC1`, the inhibition was inactive: 2.02%.
Under `CN1CCC(Nc2ccc(F)c(Cl)c2)CC1` stands inactive: 29.5%; under `CC(C)(C)OC(=O)N1CCC(Nc2ccccc2)CC1`, inactive: 9.12%; under `O=C(O)C1(Nc2ccccc2)CCN(Cc2ccccc2)CC1`, inactive: -3.56%.
Under `CCCOc1ccc(C(=O)NCC2(N(C)C)CCCCC2)cc1` stands inactive: 20.2%.

Usually inhibition stands for the change of the read-out against control, counted positive when it falls.
